Primary screen of a compound library

Source: ChEMBL document CHEMBL3988442, “University of Dundee, Small-Polar-MMV Screening Library” (2021).

The filed quantity is “Percent Effect” (%).
The controls that fix the scale are not given in the record; negative values are as filed.
Many other results are left out here, so strong results are more common than in the screen.

Mtb glucose medium: 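Growth of Mycobacterium tuberculosis over 3 days (7H9 medium with glucose and tyloxapol); the read-out is not stated. Concentration: 500 µM. Higher reads as more growth inhibition (inferred: compounds with an IC50 in retests scored well above the rest). Of about 18,000 compounds tested this way, about 1,400 (7.9%) reached 50% or more in at least one test.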
Mtb cholesterol medium: 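Phenotypic screen: M. tuberculosis growth, cholesterol and DPPC medium, 4 days; the read-out is not stated. Tested at 500 µM. The record gives no direction; compounds that gave an IC50 in retests scored well above the rest, so higher reads as more growth inhibition. Of about 18,000 compounds tested this way, about 900 (5%) reached 50% or more in at least one test.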

CCNc1ccc(N2CCOCC2)cc1 read Mtb cholesterol medium: 26.18%. Result for COc1ccc(NC(=O)CC2CCN(C)CC2)cc1 was Mtb glucose medium: 26.05%. CC(CCS(C)(=O)=O)NC(=O)N1CCC=C(Br)C1 (configuration not stated) read Mtb glucose medium: 9.065%. For CN1C(=O)c2ccc(S(N)(=O)=O)cc2C1=O the result was Mtb glucose medium: -7.396%. O=C(c1cc(Br)c[nH]1)N1CCN2CCCCC2C1 (configuration not stated) read Mtb glucose medium: 63.95%; Mtb cholesterol medium: 66.85%. CO[C@H]1CN(Cc2nccn2C(C)C)CC[C@H]1N gave Mtb cholesterol medium: 2.984%. Result for Cc1cc(C(=O)N2CCN(CC(C)O)CC2)on1 (configuration not stated) was Mtb cholesterol medium: -12.55%. NCCC(=O)N1CCC2(CC1)NCCc1nc[nH]c12 gave Mtb glucose medium: -5.259%.

NCC1CCN(S(=O)(=O)C2CC2)CC1 gave Mtb glucose medium: 10.61%. CSCCC(O)C(=O)NCC1(Cn2ccnc2)CC1 (configuration not stated) gave Mtb glucose medium: -1.335%. Result for CCCOCCNC(=O)c1cc(C(F)(F)F)n[nH]1 was Mtb glucose medium: 74.57%; Mtb cholesterol medium: 73.14%. With Cn1cc(C(=O)NCCNS(C)(=O)=O)c2ccccc21 the screen gave Mtb glucose medium: 17.3%. With CCCC(=O)NC1CCCNC1 (configuration not stated) the screen gave Mtb glucose medium: -0.226%. For CN(C)C(=O)Nc1cc(F)cc(F)c1 the result was Mtb glucose medium: 102.5%; Mtb cholesterol medium: 117.3%. With COCCn1ccnc1C1CCCN(C(=O)CSC)C1 (configuration not stated) the screen gave Mtb glucose medium: 8.934%. Result for CC1CCN(C(=O)C2CCC(CN)CC2)CC1 (configuration not stated) was Mtb cholesterol medium: 9.722%.

Result for c1ncn(CCN2CCOC3(CCCC3)C2)n1 was Mtb cholesterol medium: 0.378%. For CNC(=O)C(C)Sc1nnnn1-c1ccccc1C (configuration not stated) the result was Mtb glucose medium: 65.12%; Mtb cholesterol medium: 52.14%. Result for CN(C)CC1(O)CCCN(CC(C)(C)C)C1=O (configuration not stated) was Mtb glucose medium: 4.866%. Result for Cc1ccc(OCC(N)=O)cc1C was Mtb glucose medium: 29.78%. Result for CC(C)C[C@H](N)c1nnc2ccccn12 was Mtb cholesterol medium: 13.38%. OC1CCN(Cc2ccccc2F)CC1 read Mtb cholesterol medium: 2.448%. Result for O=C(NCC1CCCO1)Nc1cn[nH]c1 (configuration not stated) was Mtb cholesterol medium: -6.602%. Cc1ccc(CC(=O)NC2(C)CCS(=O)(=O)C2)cc1 (configuration not stated) gave Mtb glucose medium: 23.09%.

With Cn1cc(Br)cc(NC(=O)c2sccc2C#N)c1=O the screen gave Mtb glucose medium: -21.5%. Result for CC(=O)N(CC1CCCN1)C1CC1 (configuration not stated) was Mtb glucose medium: 14.07%. For CCCNc1cc(-n2cccn2)ncn1 the result was Mtb glucose medium: 72.31%; Mtb cholesterol medium: 67.07%. With CN(C)C(=O)CCc1ccc2c(c1)OCCO2 the screen gave Mtb cholesterol medium: 25.3%. Result for Cc1nc(NC(=O)c2cccs2)sc1C(=O)N(C)C was Mtb cholesterol medium: 20.3%. NCCOc1ccccc1OCCN read Mtb glucose medium: 5.295%. CC(=O)N1CC(NC(=O)c2cc(C)cc(Br)c2)C1 gave Mtb glucose medium: 4.072%. O=C(CN1CCC(C(F)(F)F)CC1)N1CCNC1=O read Mtb cholesterol medium: -3.363%.

With Cn1ncc(Cl)c1C(=O)N1CCOCC1 the screen gave Mtb glucose medium: 7.648%. Nc1ccc(CN2CCCCC2)cn1 gave Mtb cholesterol medium: -1.915%. NC(=O)C1CCCN(Cc2ccc(F)c(Br)c2)C1 (configuration not stated) read Mtb glucose medium: 30.53%. Result for Cc1c(NC(N)=O)c(=O)n(-c2ccccc2)n1C was Mtb glucose medium: -10.74%. CCOc1cc(CN)ccc1OC(F)F read Mtb cholesterol medium: 26.43%. With O=C(NC1CC1)c1ccc(CNC2CC2)cc1 the screen gave Mtb glucose medium: -0.9977%; Mtb cholesterol medium: 14.58%. For CCc1cccc(NC(=O)CCNC(C)=O)c1 the result was Mtb glucose medium: 20.46%.